Compound potency records, mixed from different reports. Data source: NIAID ChemDB in PubChem.

All rows: whole-cell or culture tests; agent: Candida albicans; read-out: MIC

Neighbouring rows are from separate reports.

SMILES | strain | result
CCCCCOc1ccc(-c2ccc(-c3ccc(C(=O)N[C@H]4CCCNC(=O)[C@@H]5C[C@H](NC)CN5C(=O)[C@H]([C@@H](C)O)NC(=O)[C@H](CCc5ccc(O)cc5)NC(=O)[C@@H]5C[C@@H](O)CN5C(=O)[C@H]([C@@H](C)O)NC4=O)cc3)cc2)cc1 | ATCC 62376 | 0.2 µg/mL
O/N=C(\c1ccc(Cl)cc1)c1oc2ccc(Cl)cc2c1Cn1cncn1 | NRRL Y-27077 | 12.5 µg/mL
C[C@H]1[C@H](O)[C@@H](C)/C=C/C=C/C=C/C=C/C=C/C=C/C=C/[C@H](O[C@@H]2O[C@H](C)[C@@H](O)[C@H](N)[C@@H]2O)C[C@@H]2O[C@](O)(C[C@@H](O)C[C@@H](O)CC[C@H](O)[C@@H](O)C[C@@H](O)CC(=O)O[C@H]1C)C[C@H](O)[C@H]2C(=O)O | KB | 0.5 µg/mL
CCCCCOc1ccc(-c2ccc(-c3ccc(C(=O)N[C@H]4CCCNC(=O)[C@@H]5CCCCN5C(=O)[C@H]([C@@H](C)O)NC(=O)[C@H](CCc5ccc(O)cc5)NC(=O)[C@@H]5C[C@@H](O)CN5C(=O)[C@H]([C@@H](C)O)NC4=O)cc3)cc2)cc1 | ATCC 38247 | >100 µg/mL
Cc1c(O)cccc1C(=O)N[C@@H](CSc1ccccc1)[C@H](O)CN1C[C@H]2CCCC[C@H]2C[C@H]1C(=O)NC(C)(C)C | I149A | >64 µg/mL
CCCCCOc1ccc(-c2ccc(-c3ccc(C(=O)N[C@H]4CCCNC(=O)C5C[C@H](N)CN5C(=O)C(CCCN(CCN)CCN)NC(=O)C(CCc5ccc(O)cc5)NC(=O)C5C[C@@H](O)CN5C(=O)C(C(C)O)NC4=O)cc3)cc2)cc1 | ATCC 62376 | 0.2 µg/mL
CC(=C/C=C/C(=O)O)/C=C/C=C(\C)C(O)C(C)C(=O)O[C@H]1C[C@H](C)C=C2C=C[C@@]3(C)O[C@@H](O)CC(=O)[C@]3(C)[C@H]21 | ATCC 38247 | 0.78 µg/mL
C[C@H]1[C@H](O)[C@@H](C)/C=C/C=C/C=C/C=C/C=C/C=C/C=C/[C@H](O[C@@H]2O[C@H](C)[C@@H](O)[C@H](N)[C@@H]2O)C[C@@H]2O[C@](O)(C[C@@H](O)C[C@@H](O)CC[C@H](O)[C@@H](O)C[C@@H](O)CC(=O)O[C@H]1C)C[C@H](O)[C@H]2C(=O)O | ATCC 64549 | 0.25 µg/mL
CCCCCC12CCC(C(=O)N[C@H]3CCCNC(=O)C4C[C@H](N)CN4C(=O)C(C(C)O)NC(=O)C(CCc4ccc(O)cc4)NC(=O)C4C[C@@H](O)CN4C(=O)C(C(C)O)NC3=O)(CC1)CC2 | ATCC CCH442 | 3.12 µg/mL
O/N=C(\c1ccccc1)c1oc2ccccc2c1Cn1cncn1 | Clinical isolate | 12.5 µg/mL
CCCCCOc1ccc(-c2ccc(-c3ccc(C(=O)N[C@H]4CCCNC(=O)C5C[C@H](N)CN5C(=O)C(CCCCN)NC(=O)C(CCc5ccc(O)cc5)NC(=O)C5C[C@@H](O)CN5C(=O)C(C(C)O)NC4=O)cc3)cc2)cc1 | ATCC 62376 | 0.2 µg/mL
CCOc1cc2c(cc1F)n([O-])c(C)c(S(=O)(=O)c1ccccc1)[n+]2=O | Clinical isolate 4 | 15.6 µg/mL
CCCCCOc1ccc(-c2ccc(-c3ccc(C(=O)N[C@H]4CCCNC(=O)[C@@H]5CCCN5C(=O)[C@H]([C@@H](C)O)NC(=O)[C@H](CCc5ccc(O)cc5)NC(=O)[C@@H]5C[C@@H](O)CN5C(=O)[C@H]([C@@H](C)O)NC4=O)cc3)cc2)cc1 | ATCC 38247 | 6.25 µg/mL
CCCCCOc1ccc(-c2ccc(-c3ccc(C(=O)N[C@H]4CCCNC(=O)C5C[C@H](N)CN5C(=O)C(C(C)O)NC(=O)C(Cc5ccccc5)NC(=O)C5C[C@@H](O)CN5C(=O)C(C(C)O)NC4=O)cc3)cc2)cc1 | ATCC CCH442 | 0.78 µg/mL
O=C(c1ccccc1)c1oc2ccccc2c1Cn1cncn1 | NRRL Y-27077 | 25 µg/mL
CCCCCCCCOc1ccc(N2CCN(c3ccc(C(=O)N[C@H]4CCCNC(=O)[C@@H]5C[C@H](N=C(N)N)CN5C(=O)[C@H](CCN)NC(=O)[C@H](CCc5ccc(O)cc5)NC(=O)[C@@H]5CCCN5C(=O)[C@H]([C@@H](C)O)NC4=O)cc3)CC2)cc1 | ATCC 38247 | 0.2 µg/mL
CCCCCOc1ccc(-c2ccc(-c3ccc(C(=O)N[C@H]4CCCNC(=O)[C@@H]5C[C@H](N)CN5C(=O)[C@H](CCCN)NC(=O)C(CCc5ccc(O)cc5)NC(=O)[C@@H]5C[C@@H](O)CN5C(=O)[C@H]([C@@H](C)O)NC4=O)cc3)cc2)cc1 | ATCC 10231 | 0.39 µg/mL
Cc1c(Sc2ccccc2)[n+](=O)c2cc(Cl)ccc2n1[O-] | Clinical isolate 10 | 31.25 µg/mL
CCCCCOc1ccc(-c2ccc(-c3ccc(C(=O)N[C@H]4CCCNC(=O)[C@@H]5C[C@H](NCc6ccccc6)CN5C(=O)[C@H]([C@@H](C)O)NC(=O)[C@H](CCc5ccc(O)cc5)NC(=O)[C@@H]5C[C@@H](O)CN5C(=O)[C@H]([C@@H](C)O)NC4=O)cc3)cc2)cc1 | ATCC 62376 | 0.39 µg/mL
CCCCCOc1ccc(-c2ccc(-c3ccc(C(=O)N[C@H]4CCCNC(=O)C5[C@@H](O)[C@@H](O)N5C(=O)C(C(C)O)NC(=O)C(CCc5ccc(O)cc5)NC(=O)C5C[C@@H](O)CN5C(=O)C(C(C)O)NC4=O)cc3)cc2)cc1 | ATCC 10231 | 0.1 µg/mL
O=[n+]1c(Sc2ccccc2)c(CBr)n([O-])c2ccccc21 | Clinical isolate 16 | 31.25 µg/mL
CCCCCOc1ccc(-c2ccc(-c3ccc(C(=O)N[C@H]4CCCNC(=O)[C@@H]5C[C@H](N)CN5C(=O)[C@H](CCCN=C(N)N)NC(=O)C(CCc5ccc(O)cc5)NC(=O)[C@@H]5C[C@@H](O)CN5C(=O)[C@H]([C@@H](C)O)NC4=O)cc3)cc2)cc1 | ATCC 38247 | 0.78 µg/mL
CCCCCOc1ccc(-c2ccc(-c3ccc(C(=O)N[C@H]4CCCNC(=O)C5C[C@H](N)CN5C(=O)C(Cc5cnc[nH]5)NC(=O)C(CCc5ccc(O)cc5)NC(=O)C5C[C@@H](O)CN5C(=O)C(C(C)O)NC4=O)cc3)cc2)cc1 | ATCC CCH442 | 0.78 µg/mL
Cc1c(S(=O)(=O)c2ccccc2)[n+](=O)c2ccccc2n1[O-] | Clinical isolate 5 | 31.25 µg/mL
O=C(c1ccccc1)c1oc2ccc(Cl)cc2c1Cn1ccnc1 | Clinical isolate | 25 µg/mL
C[C@H]1[C@H](O)[C@@H](C)/C=C/C=C/C=C/C=C/C=C/C=C/C=C/[C@H](O[C@@H]2O[C@H](C)[C@@H](O)[C@H](N)[C@@H]2O)C[C@@H]2O[C@](O)(C[C@@H](O)C[C@@H](O)CC[C@H](O)[C@@H](O)C[C@@H](O)CC(=O)O[C@H]1C)C[C@H](O)[C@H]2C(=O)O | A25942 (amphotericin B-resistant) | 4 µg/mL
CCCCCOc1ccc(-c2ccc(-c3ccc(C(=O)N[C@H]4CCCNC(=O)C5C[C@H](NC(=O)OC)CN5C(=O)C(C(C)O)NC(=O)C(CCc5ccc(O)cc5)NC(=O)C5C[C@@H](O)CN5C(=O)C(C(C)O)NC4=O)cc3)cc2)cc1 | ATCC 62376 | 0.39 µg/mL
CCCCCCCCOc1ccc(-c2ccc(C(=O)N[C@H]3CCCNC(=O)[C@@H]4C[C@H](N)CN4C(=O)[C@H]([C@@H](C)O)NC(=O)[C@H](CCc4ccc(O)cc4)NC(=O)[C@@H]4C[C@@H](O)CN4C(=O)[C@H]([C@@H](C)O)NC3=O)cc2)cc1 | ATCC 62376 | 0.2 µg/mL
Cc1c(Cl)[n+](=O)c2cc(Cl)ccc2n1[O-] | Clinical isolate 1 | 15.6 µg/mL
O=C(c1ccc(Cl)cc1)c1oc2ccc(Cl)cc2c1Cn1cncn1 | NRRL Y-27077 | 25 µg/mL

Repeating the first 4 entries:

SMILES,strain,result
CCCCCOc1ccc(-c2ccc(-c3ccc(C(=O)N[C@H]4CCCNC(=O)[C@@H]5C[C@H](NC)CN5C(=O)[C@H]([C@@H](C)O)NC(=O)[C@H](CCc5ccc(O)cc5)NC(=O)[C@@H]5C[C@@H](O)CN5C(=O)[C@H]([C@@H](C)O)NC4=O)cc3)cc2)cc1,ATCC 62376,0.2 µg/mL
O/N=C(\c1ccc(Cl)cc1)c1oc2ccc(Cl)cc2c1Cn1cncn1,NRRL Y-27077,12.5 µg/mL
C[C@H]1[C@H](O)[C@@H](C)/C=C/C=C/C=C/C=C/C=C/C=C/C=C/[C@H](O[C@@H]2O[C@H](C)[C@@H](O)[C@H](N)[C@@H]2O)C[C@@H]2O[C@](O)(C[C@@H](O)C[C@@H](O)CC[C@H](O)[C@@H](O)C[C@@H](O)CC(=O)O[C@H]1C)C[C@H](O)[C@H]2C(=O)O,KB,0.5 µg/mL
CCCCCOc1ccc(-c2ccc(-c3ccc(C(=O)N[C@H]4CCCNC(=O)[C@@H]5CCCCN5C(=O)[C@H]([C@@H](C)O)NC(=O)[C@H](CCc5ccc(O)cc5)NC(=O)[C@@H]5C[C@@H](O)CN5C(=O)[C@H]([C@@H](C)O)NC4=O)cc3)cc2)cc1,ATCC 38247,>100 µg/mL